A mixed list of measured activities; the numbers were collected in NIAID ChemDB.

All rows: growth or infection tests; organism: Mycobacterium tuberculosis

Fold resistance has wild type as its base.

| compound | mutations | strain or isolate | setting | method | tested at | read-out | result |
|---|---|---|---|---|---|---|---|
| Cc1ccc(C(=O)Oc2ccc(/C=C3\CCC/C(=C\c4ccc(OC(=O)c5ccc(C)cc5)cc4)C3=O)cc2)cc1 |  | H37Rv |  |  | 12.5 µg/mL | inhibition | 21% |
| CC1(C)C2CCC(CN3C(=O)c4ccccc4C3=O)C1C2 |  | Clinical isolate (isoniazid-resistant) |  |  |  | MIC | ≤20 µg/mL |
| CCCCCCCC[N+]1([O-])CC[N+](C)([O-])CC1 |  | H37Rv |  | BACTEC |  | MIC | ≥12.5 µg/mL |
| CO[C@H]1/C=C/O[C@@]2(C)Oc3c(C)c(O)c4c(O)c(c5c(c4c3C2=O)NC2(CCN(CC(C)C)CC2)N=5)=NC(=O)/C(C)=C\C=C\[C@H](C)[C@H](O)[C@@H](C)[C@@H](O)[C@@H](C)[C@H](OC(C)=O)[C@@H]1C |  | Isolate 900216 drug-susceptible |  |  |  | MIC | 0.063 µg/mL |
| NNC(=O)c1ccncc1 |  | Isolate 9 |  |  |  | MIC | 2 µg/mL |
| O=C(N/N=C/c1cccc(F)c1)c1ccncc1 |  | Kanamycin-resistant |  |  |  | MIC | ≤0.1 µg/mL |
| CO[C@H]1/C=C/O[C@@]2(C)Oc3c(C)c(O)c4c(=O)c(c5oc6cc(N7CCN(CC(C)C)CC7)cc(=O)c6nc5c4c3=C2O)NC(=O)/C(C)=C\C=C\[C@H](C)[C@H](O)[C@@H](C)[C@@H](O)[C@@H](C)[C@H](OC(C)=O)[C@@H]1C |  | 2912 (rifampin-sensitive) |  |  |  | MBC | 0.006 µg/mL |
| CCCCCCCCOc1ccc(NC(=O)OCCN(C)C)cc1 |  | My 331/88 |  |  |  | MIC | 16 µM |
| CO[C@H]1/C=C/O[C@@]2(C)Oc3c(C)c(O)c4c(O)c(c(/C=N/N5CCN(C6CCCC6)CC5)c(O)c4c3C2=O)NC(=O)/C(C)=C\C=C\[C@H](C)[C@H](O)[C@@H](C)[C@@H](O)[C@@H](C)[C@H](OC(C)=O)[C@@H]1C |  | Erdman |  |  |  | MBC | 0.25 µg/mL |
| CCc1nc2ccc(C)cc2n1CCCCSc1ccc(Cl)cc1 | WT | H37Rv |  | turbidity / fluorescence |  | MIC90 | 16 µM |
| CC(C)(C)C1CCc2c(sc3nc(SCc4ccon4)nc(N)c23)C1 |  | H37Rv |  | MTT / visual reading |  | MIC | 25 µg/mL |
| CCCCCCCCCN1C(=O)CCC1=O |  | H37Rv |  |  |  | MIC | ≤20 µg/mL |
| CC(=O)Nc1n[n+]([O-])c2cc(C)ccc2[n+]1[O-] |  | H37Rv |  | BACTEC | 6.25 µg/mL | inhibition | 99% |
| CCCCCCCCCCOc1ccc(NC(=O)OCC[NH+]2CCCC2)cc1 |  | My 331/88 |  |  |  | MIC | 16 µM |
| CC(NNC(=O)c1ccncc1)c1ccc(Cl)c(Cl)c1 |  | H37Rv |  |  |  | MIC | 1.6 µg/mL |
| NC(CCCC(N)P(=O)(O)c1ccccc1)P(=O)(O)c1ccccc1 |  | H37Rv |  | BACTEC | 12.5 µg/mL | inhibition | 0% |
| O=C(NNCc1ccccc1)c1ccncc1 |  | Isoniazid-resistant |  |  |  | MBC | >6.25 µg/mL |
| CC(C)(C)C1CCc2c(sc3nc(SCc4noc5ccccc45)nc(N)c23)C1 |  | H37Rv |  | MTT / visual reading |  | MIC | >200 µg/mL |
| CCCCCCCCCCOc1ccccc1NC(=O)OCC[NH+]1CCCC1 |  | My 331/88 |  |  |  | MIC | 16 µM |
| COc1ccc2oc(=S)n(-c3ccc(Br)cc3)c(=S)c2c1 |  | My 331/88 | 14 d |  |  | MIC | 8 µM |
| CN(C)CC1CCC/C(=C\c2ccc(OC(=O)/C=C/c3ccccc3)cc2)C1=O |  | H37Rv |  |  | 12.5 µg/mL | inhibition | 99% |
| CC1CC(C)(O)C2C3(C)C(=O)C34CCCC3(CC23C12CCC1(CCOC1=O)O2)O4 |  | H37Rv |  | BACTEC |  | MIC | ≥12.5 µg/mL |
| O=C(NNCc1ccccc1F)c1ccncc1 |  | H37Rv (ethambutol-resistant) |  |  |  | MIC | 1.95 µg/mL |
| O=c1oc2ccc(Br)cc2c(=S)n1-c1ccccc1 |  | My 331/88 | 14 d |  |  | MIC | 0.5 µM |
| Cc1ncc([N+](=O)[O-])n1CCN=[N+]=[N-] |  | H37Rv |  | resazurin |  | MIC bound | >6.25 µg/mL |
| NC(=O)c1cnccn1 |  | Isolate 97-553 |  |  |  | MIC | 100 µg/mL |
| Cc1ccc2oc(=S)n(-c3cccc(F)c3)c(=S)c2c1 |  | My 331/88 | 21 d |  |  | MIC | 8 µM |
| CCC1CN(c2c(F)cc3c(=O)c(C(=O)O)cn(C4CC4)c3c2OC)CCN1 |  | 56 (RFP-resistant) |  |  |  | MIC | 32 µg/mL |
| O=C(/C=C/c1ccc(F)cc1)Oc1ccc(/C=C2\CCCCC2=O)cc1 |  | H37Rv |  |  |  | EC50 | <12.5 µg/mL |
| CCC1Cn2cc([N+](=O)[O-])nc2O1 |  | H37Rv-T2 (PA-824-resistant) |  |  |  | MIC | 0.8 µM |
| CCCCCOc1cccc(NC(=O)OCCN2CCOCC2)c1 |  | My 331/88 |  |  |  | MIC | 62.5 µM |
| Fc1ccc2oc(=S)n(-c3ccc(C(F)(F)F)cc3)c(=S)c2c1 |  | My 331/88 | 14 d |  |  | MIC | 2 µM |
| CCC1CN(c2c(F)cc3c(=O)c(C(=O)O)cn([C@@H]4C[C@@H]4F)c3c2OC)CCN1 |  | 47 (RFP-resistant) |  |  |  | MIC | 1 µg/mL |
| CC(NNC(=O)c1ccncc1)c1cccc(F)c1 |  | H37Rv |  |  |  | MIC | 1.6 µg/mL |
| COc1ccc(CCc2cc(OC)c3ccccc3n2)cc1OC |  | MT8 |  |  |  | MIC | 39 µg/mL |
| Cc1cc(CSc2nc(N)c3c4c(sc3n2)CC(C(C)(C)C)CC4)no1 |  | H37Rv |  | MTT / visual reading |  | MIC | 3.1 µg/mL |
| O=[N+]([O-])c1cn2c(n1)OC[C@@H](OCc1ccc(OC(F)(F)F)cc1)C2 |  | H37Rv-T2 (PA-824-resistant) |  |  |  | MIC | >100 µM |
| CC(NNC(=O)c1cc[n+]([B]C#N)cc1)c1ccc(F)cc1 |  |  |  | BACTEC | 0.5 µM | inhibition | 0% |
| O=C(N/N=C/c1cccc(C(F)(F)F)c1)c1ccncc1 |  | Rifampicin-resistant |  |  |  | MIC | 0.1 µg/mL |
| CN[C@@H]1[C@H](O[C@H]2[C@H](O[C@H]3[C@H](O)[C@@H](O)[C@H](N=C(N)N)[C@@H](O)[C@@H]3N=C(N)N)O[C@@H](C)[C@]2(O)C=O)O[C@@H](CO)[C@H](O)[C@H]1O |  | TN3187 (W1) |  |  |  | MIC | >2 µg/mL |
| O=C(NNCc1cccc(C(F)(F)F)c1)c1ccncc1 |  | H37Rv (thiacetazone-resistant) |  |  |  | MIC | >31.25 µg/mL |
| CCCOC(=O)CSc1nc(N)c2c3c(sc2n1)CC(C(C)(C)C)CC3 |  | H37Rv |  | MTT / visual reading |  | MIC | 1.5 µg/mL |
| CCc1nc2ccccc2n1CCCCOc1ccc(Cl)cc1C | Rv1339 V90M | H37Rv |  | turbidity / fluorescence |  | fold resistance | 0.6 |
| NC(=O)c1cnccn1 |  | Isolate 9579 monodrug-resistant |  |  |  | MIC | >300 µg/mL |
| O=C(N/N=C/c1ccccc1F)c1ccncc1 |  | H37Rv |  |  |  | MIC | 0.05 µg/mL |
| CO[C@H]1/C=C/O[C@@]2(C)Oc3c(C)c(O)c4c(O)c(c5c(c4c3C2=O)NC2(CCN(CC(C)C)CC2)N=5)=NC(=O)/C(C)=C\C=C\[C@H](C)[C@H](O)[C@@H](C)[C@@H](O)[C@@H](C)[C@H](OC(C)=O)[C@@H]1C |  | 2847 (rifampin-sensitive) |  |  |  | MBC | 0.05 µg/mL |
| O=C1C(=O)N(c2cccc(Cl)c2)C(=O)N1Cc1ccccc1 |  | H37Rv |  | BACTEC |  | MIC bound | >12.5 µg/mL |
| CCc1nc2ccccc2n1CCCCOc1ccccc1Cl | Rv1339 V90M | H37Rv |  | turbidity / fluorescence |  | MIC90 | 5.9 µM |
| CN[C@@H]1[C@H](O[C@H]2[C@H](O[C@H]3[C@H](O)[C@@H](O)[C@H](N=C(N)N)[C@@H](O)[C@@H]3N=C(N)N)O[C@@H](C)[C@]2(O)C=O)O[C@@H](CO)[C@H](O)[C@H]1O |  | Isolate 7 |  |  |  | MIC | 16 µg/mL |
| S=C(S)NC1CCN(Cc2ccccc2)CC1 |  | H37Rv |  | BACTEC | 12.5 µg/mL | inhibition | 27% |
| CO[C@H]1/C=C/O[C@@]2(C)Oc3c(C)c(O)c4c(O)c(c(/C=N/N5CCN(C)CC5)c(O)c4c3C2=O)NC(=O)/C(C)=C\C=C\[C@H](C)[C@H](O)[C@@H](C)[C@@H](O)[C@@H](C)[C@H](OC(C)=O)[C@@H]1C |  | H37Rv (isoniazid-resistant) |  |  |  | MIC | 10 µg/mL |
| C=C[C@H]1CN2CC[C@H]1C[C@H]2[C@H](O)c1ccnc2ccc(OC)cc12 |  | H37Rv |  | BACTEC |  | MIC bound | >128 µg/mL |
| C/C(=N\NC(=O)c1ccncc1)c1ccccc1F |  | H37Rv (isoniazid-resistant) |  |  |  | MIC | >31.25 µg/mL |
| Cc1cccc(NC(=O)CC(=O)N2N=C(N3c4ccccc4Sc4ccccc43)CC2c2ccccc2)c1 |  | H37Rv |  | resazurin |  | MIC bound | >6.25 µg/mL |
| CCCOc1cccc(NC(=O)OCC[NH+]2CCCC2)c1 |  | My 331/88 |  |  |  | MIC | 500 µM |
| COC(=O)[C@@H](O)[C@](O)(CCC(C)C)C(=O)O[C@@H]1C(OC)=C[C@]23CCCN2CCc2cc4c(cc2[C@H]13)OCO4 |  | H37Rv |  | BACTEC |  | MIC bound | >12.5 µg/mL |
| CCCCCCCCCN1C(=O)CC(C)C1=O |  | H37Rv |  |  |  | MIC | ≤20 µg/mL |
| NC(=O)c1cc([N+](=O)[O-])cnc1Sc1ncccn1 |  | H37Rv |  | BACTEC |  | MIC bound | >12.5 µg/mL |
| CO[C@H]1/C=C/O[C@@]2(C)Oc3c(C)c(O)c4c(=O)c(c5oc6cc(N7CCN(CC(C)C)CC7)cc(=O)c6nc5c4c3=C2O)NC(=O)/C(C)=C\C=C\[C@H](C)[C@H](O)[C@@H](C)[C@@H](O)[C@@H](C)[C@H](OC(C)=O)[C@@H]1C |  | 2230 (rifampicin-resistant) |  |  |  | MBC | 0.25 µg/mL |
| CCOC(=O)NC(=O)C1C2CC3OC(=O)C1C3C2 |  | H37Rv |  | BACTEC |  | MIC bound | >12.5 µg/mL |
| CN1c2ccccc2CCC1CCc1ccc2c(c1)OCO2 |  | MT8 |  |  |  | MIC | 169 µg/mL |
| CCc1nc2ccc(C)cc2n1CCCCOc1ccccc1 | Rv1339 V90M | H37Rv |  | turbidity / fluorescence |  | fold resistance | 1.3 |
| O=C1NC(CO)C(=O)NC1CO |  | H37Rv |  | BACTEC |  | MIC | ≥12.5 µg/mL |
| O=C1CCCC/C1=C\c1ccc(OC(=O)c2ccc(Cl)cc2)cc1 |  | H37Rv |  |  |  | EC50 | <12.5 µg/mL |
| COC(=O)c1c[nH]c2c1-c1cc(C(=O)OCc3ccccc3)n(S(=O)(=O)c3ccc(C)cc3)c1C(=O)C2=O |  | H37Rv |  | resazurin |  | MIC bound | >6.25 µg/mL |
| CCCCCCCCNC1CC(=O)N(CCCCCCCC)C1=O |  | H37Rv |  |  |  | MIC | ≤20 µg/mL |
| Cc1c(N2C[C@@H](N)C3(CC3)C2)c(F)cc2c(=O)c(C(=O)O)cn([C@@H]3C[C@@H]3F)c12 |  | 44 (RFP-resistant) |  |  |  | MIC | 0.05 µg/mL |
| CN(C)CCCNC(=S)S |  | H37Rv |  | BACTEC | 12.5 µg/mL | inhibition | 10% |
| C[C@H]1COc2c(N3CCN(C)CC3)c(F)cc3c(=O)c(C(=O)O)cn1c23 | INH resistant | Clinical isolate BRF 14 |  | resazurin |  | MIC | 0.25 µg/mL |
| CCOC(=O)C(C)Sc1nc(N)c2c3c(sc2n1)CC(C(C)(C)C)CC3 |  | H37Rv |  | MTT / visual reading |  | MIC | 6.2 µg/mL |
| CCc1nc2ccccc2n1CCCCNc1ccc(-c2ccccn2)cc1 | QcrB M342T | H37Rv |  | turbidity / fluorescence |  | fold resistance | 40 |
| CCN(CC)CCNc1ccc(C)c2sc3ccc(N)cc3c(=O)c12 |  | H37Rv |  | BACTEC | 12.5 µg/mL | inhibition | 100% |
| CCc1nc2ccc(C)cc2n1CCCNc1ccc(C)cc1C | WT | H37Rv |  | turbidity / fluorescence |  | MIC90 | 1 µM |
| CCC(C)C1NC(=O)C(CC(C)C)NC(=O)C(C(C)C)NC(=O)C2CSSCC(NC1=O)C(=O)N2 |  | H37Rv |  | BACTEC |  | MIC | ≥12.5 µg/mL |
| O=C(CCc1ccccc1)Oc1ccc(/C=C2\CCCCC2=O)cc1 |  | H37Rv |  |  |  | EC50 | >12.5 µg/mL |
| CC1(C)OC(=O)C2(c3ccccc3-c3ccccc32)C1NC1CCCCC1 |  | H37Rv |  | BACTEC |  | MIC bound | >12.5 µg/mL |
| C[C@@H]1CN(c2c(F)c(N)c3c(=O)c(C(=O)O)cn(C4CC4)c3c2F)C[C@H](C)N1 |  | 900233 |  |  |  | MIC | 0.2 µg/mL |
| O=C(Nc1cccc2c1C(=O)c1ccc(Nc3cc(NC(=O)c4ccccc4)c4c(c3)C(=O)c3ccccc3C4=O)cc1C2=O)c1ccccc1 |  | H37Rv |  | BACTEC |  | MIC bound | >12.5 µg/mL |
| C[C@@H]1CN(c2c(F)c(N)c3c(=O)c(C(=O)O)cn(C4CC4)c3c2F)C[C@H](C)N1 |  | Isolate 4 |  |  |  | MIC | 1 µg/mL |

Inhibition is in % at the dose shown (toxicity tests: loss of growth or viability). MIC bound: limit read from a one-dose screen. Blank or dashed fields: not listed here. ECn: concentration that inhibits the pathogen or its effect by n%. Rows are shuffled and stem from different studies. A number after MIC or MFC names an inhibition level or a share of isolates.